Measurements reported in PubChem BioAssay AID504761 (Drosophila RNAi Screening Center, 2011).

Purpose: 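Fly genes whose silencing reduces dengue virus type 2 infection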 (primary screen)
System: D.Mel-2 cells from Drosophila
Knock-down reagent: long dsRNA against Drosophila genes
Challenge: infection with dengue virus type 2; dose and infection time not stated
Measurement: 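Per well on two replicate plates, imaging gave the percent of cells positive for viral envelope protein, ranked by infection, and a nuclear count of cells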
Reading the numbers: infection score: higher = more virus-infected cells; cell count: higher = more cells in the well
Rule for the call: 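Low infection ranks in the two replicates (chance level up to 0.065) followed by a retest with a 1.5-fold or larger significant decrease, p below 0.05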
Meaning of the calls: active = confirmed: knock-down lowers infection; inactive = not picked or not confirmed
The screen tested about 22,000 reagents; shown is a random part of those that have a named target and a result. In the full data, 116 (0.52%) are marked active. 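Calls depend on retest data that are not deposited; infection was ranked per plate without normalising between plates; the unit of the infection score is not given.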 Raw values are not corrected between plates. The numbers tell different reagents against one gene apart. A plus sign joins genes that one reagent is predicted to hit. Further read-outs or replicates are left out here. Not stated in the record: the amount of reagent, the time to read-out.

{"Gene": "HemK2 + Snapin", "reagent": 1, "infection score, replicate 1": 3.37, "cell count, replicate 1": 6177, "Call": "inactive"}
{"Gene": "Ppr-Y", "reagent": 1, "infection score, replicate 1": 11, "cell count, replicate 1": 6352, "Call": "inactive"}
{"Gene": "Ppi1 (Protein phosphatase 1c interacting protein 1)", "reagent": 1, "infection score, replicate 1": 1.8, "cell count, replicate 1": 6628, "Call": "inactive"}
{"Gene": "CG10064", "reagent": 1, "infection score, replicate 1": 2.03, "cell count, replicate 1": 5816, "Call": "inactive"}
{"Gene": "Tace", "reagent": 1, "infection score, replicate 1": 3.89, "cell count, replicate 1": 6266, "Call": "inactive"}
{"Gene": "S-Lap1 (Sperm-Leucylaminopeptidase 1)", "reagent": 1, "infection score, replicate 1": 4.45, "cell count, replicate 1": 6472, "Call": "inactive"}
{"Gene": "CG16898", "reagent": 1, "infection score, replicate 1": 3.03, "cell count, replicate 1": 5902, "Call": "inactive"}
{"Gene": "CG16898", "reagent": 2, "infection score, replicate 1": 1.86, "cell count, replicate 1": 6340, "Call": "inactive"}
{"Gene": "Gr47a (Gustatory receptor 47a)", "reagent": 1, "infection score, replicate 1": 6.41, "cell count, replicate 1": 6378, "Call": "inactive"}
{"Gene": "CG9166", "reagent": 1, "infection score, replicate 1": 3.81, "cell count, replicate 1": 5929, "Call": "inactive"}
{"Gene": "Obp50c + Obp50b", "reagent": 1, "infection score, replicate 1": 2.29, "cell count, replicate 1": 6157, "Call": "inactive"}
{"Gene": "CG34199", "reagent": 1, "infection score, replicate 1": 4.02, "cell count, replicate 1": 6288, "Call": "inactive"}
{"Gene": "CG34199", "reagent": 2, "infection score, replicate 1": 10.3, "cell count, replicate 1": 6618, "Call": "inactive"}
